Compound potency records, mixed from different reports. Data source: NIAID ChemDB in PubChem.

Common to all: whole-cell or culture tests; species: Coxsackie virus

Lines come from different laboratories, so protocols vary. Inhibition is in % at the dose shown (toxicity tests: loss of growth or viability). An empty or dashed field is not shown. a–b is a range or a potency band. ECn: concentration that inhibits the pathogen or its effect by n%.

compound	strain	cells	read by	read-out	tested at	result
CSc1nsc(-c2ccc(OS(=O)(=O)c3ccc(C)cc3)cc2)c1C#N	TYPE B1	HEP-2	plaque count	EC50	-	>25 µM
COc1ccc(-n2c(Cc3nc4n(n3)CCCC4)n[nH]c2=S)cc1	B4	-	-	MIC	-	80 µg/mL
Cc1cc(OCCCc2ccc(=O)[nH]n2)cc(C)c1-c1noc(C(F)F)n1	-	HeLa	cytopathic effect	EC50	-	0.033–0.659 µg/mL
CSc1nsc(-c2ccc(O)cc2)c1C#N	TYPE B1	HEP-2	plaque count	EC50	-	>2 µM
Cc1nc(Cc2n[nH]c(=S)n2-c2ccccc2)nn1C	B4	-	-	MIC	-	80 µg/mL
COc1ccc(CCCOc2cc(C)c(-c3noc(C(F)F)n3)c(C)c2)nn1	-	HeLa	cytopathic effect	EC50	-	0.033–0.659 µg/mL
Nc1nc2c(ccn2[C@@H]2C[C@H](CO)[C@H](O)[C@@H]2O)c(=O)[nH]1	A21	-	-	MIC	-	>100 µg/mL
Nc1ncnc2c1ncn2[C@@H]1C=C[C@@H](O)[C@H]1O	TYPE B4	-	-	MIC	-	>400 µg/mL
CCn1nc(CC(=O)NN=C(C)C)nc1C	B4	-	-	MIC	-	>400 µg/mL
N#Cc1cc([N+](=O)[O-])ccc1Oc1ccc(Cl)c(Cl)c1	TYPE A21	VERO	-	inhibition	3.125 µg/mL	100%
CSc1nsc(SC)c1C#N	TYPE B1	HEP-2	plaque count	EC50	-	>12 µM
CCc1ccc(CCCOc2ccc(-c3noc(C(F)(F)F)n3)c(C)c2)nn1	-	HeLa	cytopathic effect	EC50	-	0.033–0.659 µg/mL
Cc1cc(CCCCCOc2c(Cl)cc(C3=NCCO3)cc2Cl)on1	B-2	RD-2	plaque count	EC50	-	0.007 µg/mL
Cc1cc(OCCCc2ccc(Br)nn2)cc(C)c1-c1noc(C(F)F)n1	-	HeLa	cytopathic effect	EC50	-	0.033–0.659 µg/mL
CSc1nsc(-c2ccncc2)c1C#N	TYPE B1	HEP-2	plaque count	EC50	-	>2.5 µM
CC(=O)c1ccc(CCCOc2cc(C)c(-c3noc(C(F)F)n3)c(C)c2)nn1	-	HeLa	cytopathic effect	EC50	-	0.033–0.659 µg/mL
CCc1nc(CC(=O)NN=C(C)C)nn1CC	B4	-	-	MIC	-	>400 µg/mL
Cc1cc(-c2noc(C(F)(F)F)n2)cc(C)c1OCCCc1ccc(C(C)(F)F)nn1	-	HeLa	cytopathic effect	EC50	-	0.033–0.659 µg/mL
CCSC1NN=C(Cc2nc(C)n(C)n2)N1c1ccccc1	B4	-	-	MIC	-	400 µg/mL
CCCc1nc(-c2c(C)cc(OCCCc3ccc(CO)nn3)cc2C)no1	-	HeLa	cytopathic effect	EC50	-	0.033–0.659 µg/mL
Nc1ncnc2c1ncn2[C@@H]1CC[C@@H](O)[C@H]1O	TYPE B4	-	-	MIC	-	>200 µg/mL

Again, the opening 3 rows:

compound | strain | cells | read by | read-out | tested at | result
CSc1nsc(-c2ccc(OS(=O)(=O)c3ccc(C)cc3)cc2)c1C#N | TYPE B1 | HEP-2 | plaque count | EC50 | - | >25 µM
COc1ccc(-n2c(Cc3nc4n(n3)CCCC4)n[nH]c2=S)cc1 | B4 | - | - | MIC | - | 80 µg/mL
Cc1cc(OCCCc2ccc(=O)[nH]n2)cc(C)c1-c1noc(C(F)F)n1 | - | HeLa | cytopathic effect | EC50 | - | 0.033–0.659 µg/mL